# Test system: M. tuberculosis H37Rv
# Assay: Transcriptional response by RNA-seq
# Assay type: cell-based, Mycobacterium tuberculosis
# Conditions: AX-35 at 10× and 30× MIC, 4 h
structure (smiles),measurement,value
"O=C(/C=C/c1cccs1)N1CCN(Cc2ccc3c(c2)OCO3)CC1 [AX-35, (E)-1-(4-(Benzo[d][1,3]dioxol-5-ylmethyl)piperazin-1-yl)-3-(thiophen-2-yl)prop-2-en-1-one]",cydA fold change (RNA-seq),1.97
same,cydB fold change (RNA-seq),1.99

# Reference: PMC6178619, “Arylvinylpiperazine Amides, a New Class of Potent Inhibitors Targeting QcrB of Mycobacterium tuberculosis” (mBio, 2018)
